Test results taken from patent US7968530B2 (priority 2005, dated 2011).

Tested on: Phytophthora infestans
Conditions: ionic couple of acid choline phosphite, 1575 ppm equivalent phosphorous acid

Q: For Acid Choline Phosphite [Compound 2], which “Synergy factor (experimental activity/activity calculated according to Limpel)” value is on record?
A: The value was 1.4.
